Data on one molecule can be found in publication PMC10573436, “Novel Antiviral Molecules against Ebola Virus Infection” (2023).

The experiment deals with partner chain of the complex shown.

Values joined by “and” are separate entries in the source; they are usually repeats but may differ in a detail not shown here. Identical values can stand only once.

B1: unnamed (protein)
parent chain 1: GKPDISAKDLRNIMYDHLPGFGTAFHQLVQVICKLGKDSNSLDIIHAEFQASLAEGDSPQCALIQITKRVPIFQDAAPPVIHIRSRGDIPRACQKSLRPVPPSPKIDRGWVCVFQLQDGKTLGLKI
parent chain 2: MAGDLSAGFFMEELNTYRQKQGVVLKYQELPNSGPPHDRRFTFQVIIDGREFPEGEGRSKKEAKNAAAKLAVEILNKEKKAVSPLLLTTTNSSEGLSMGNYIGLINRIAQKKRLTVNYEQCASGVHGPEGFHYKCKMGQKEYSIGTGSTKQEAKQLAAKLAYLQILSEETSVKSDYLSSGSFATTCESQSNSLVTSTLASESSSEGDFSADTSEINSNSDSLNSSSLLMNGLRNNQRKAKRSLAPRFDLPDMKETKYTVDKRFGM
Regarding B1, the response was 5e+07 and 4.2e+07 and 4.7e+07.
